Data as given in ChEMBL document CHEMBL1133723, “Developing a dynamic pharmacophore model for HIV-1 integrase” (J Med Chem, 2000).

Biological target: Human immunodeficiency virus type 1 integrase (Human immunodeficiency virus 1) (UniProt Q7ZJM1)
Conditions: at 1 mM

SMILES: O=C(NOCCOc1cccc(OCCONC(=O)NP(=O)(O)O)c1)NP(=O)(O)O
- inhibition: < 50%
